# Measurements: ChEMBL document CHEMBL4513161, “CO-ADD screening of MMV (CH) - Pandemic Response Box” (2021)
# Test system: Pseudomonas aeruginosa
# Test: Antibacterial activity against Pseudomonas aeruginosa PAO397 [PAO1 d(mexAB-oprM) d(mexCD-oprJ) d(mexEF-oprN) d(mexJKL) d(mexXY) d(opmH)] (CO-ADD:GN_211); MIC in CAMBH media using NBS plates, by OD(600)
# Assay type: functional
# Details: ASSAY_TEST Inhibition of Bacterial Growth, detection method Absorption (OD600), MEDIA CAMHB, plate type 384well, CORNING #3640, time 18 hr
row,Structure (SMILES),MIC [µM]
1,N=c1n(CCN2CCCCC2)c2ccccc2n1CC(O)COc1ccc(Cl)cc1Cl (configuration not stated),20
2,CCN(CC)CCn1c(=N)n(CC(O)COc2ccc(Cl)cc2Cl)c2ccccc21 (configuration not stated),> 20
